Measured values from several laboratories, pooled; numbers as filed in NIAID ChemDB.

All rows: tests in culture; agent: HIV-1; measure: EC50

ECn: concentration that inhibits the pathogen or its effect by n%. Lines come from different laboratories, so protocols vary. Blank or dashed fields: not listed here.

SMILES	strain or isolate	mutations	cell line	read by	conditions	result
CCc1c(CC2CCCCC2)nc(SCC(=O)c2ccccc2)[nH]c1=O	NL4-3	V106A	C8166	p24 / ELISA	-	0.734 µM
c1cc(CN2CCCNCCNCCCNCC2)ccc1CN1CCCNCCNCCCNCC1	IIIB	-	MAGI cell	β-galactosidase	-	0.0034 µM
Nc1ccn([C@H]2CC[C@@H](CO)O2)c(=O)n1	HXB2	RT-M184V	CD4+HELA + HeLa	plaque count	-	1.1 µM
CCc1c(C(=O)c2cc(C)cc(C)c2)n(CC2CC=CC2)c(=O)[nH]c1=O	ADA	-	MM + M/M	cytopathic effect / XTT	clinical isolate	0.0003 µM
COc1cc(C(F)(F)F)cc(S(=O)(=O)c2cccc(N)c2C#N)c1	-	RT-V108I Y181C	HeLa + HELA CD4+	β-galactosidase	-	14 µM
Nc1nc(=O)n([C@@H]2CS[C@H](CO)O2)cc1F	RTMC (RT D67N K70R T215F K219Q)	RT-D67N K70R T215F K219Q	HT4 + HT4 LacZ-1	-	-	0.4 µM
Nc1nc(=O)n([C@@H]2CO[C@H](CO)S2)cc1F	1075 (AZT-resistant)	-	CBMC	RT activity	-	2 µM
Cc1c(Sc2ccccc2)n(COCCO)c(=O)[nH]c1=O	IIIB	-	CEM(DAY 4) + CEM	cytopathic effect / MTT	-	1.3 µM
Nc1nc(=O)n([C@H]2CO[C@@H](CO)S2)cc1F	4242 (RT-M41L K70R T215Y)	RT-M41L K70R T215Y	CBMC	RT activity	-	0.25 µM
Cc1ccccc1Cc1cccc(C(=O)CC(=O)C(=O)O)c1	-	INTG-S153Y N155S	-	p24	-	14 µM
Cc1cn([C@H]2C[C@H](N=[N+]=[N-])[C@@H](CO)O2)c(=O)[nH]c1=O	RTMQ+184V (RT M41L D67N K70R M184V T215Y)	RT-M41L D67N K70R M184V T215Y	HT4LACZ-1 + HT4 LacZ-1	plaque count	-	0.03 µM
O=c1[nH]cnc2c1ncn2[C@H]1CC[C@@H](CO)O1	HX	-	HT4LACZ-1 + HT4 LacZ-1	-	-	6.7 µM
N#CC1C=Cc2ccccc2C1C(=O)/C=C/c1ccccc1	NL4.3-XCS	41-215 (AZT-resistant)	HeLa CD4	β-galactosidase	-	0.239 µM
COC(=O)C(C)CNP(=O)(OC[C@@H]1CC[C@H](n2cc(C)c(=O)[nH]c2=O)O1)Oc1ccc(OC)cc1	-	-	CEM(TK-) + CEM TK-	RT activity	-	19.7 µM
Nc1nc(=O)n([C@@H]2CC[C@H](CO)O2)cc1F	RTMC (RT D67N K70R T215F K219Q)	RT-D67N K70R T215F K219Q	HT4 + HT4 LacZ-1	-	-	1 µM
COC(=O)C(C)CNP(=O)(OC[C@@H]1CC[C@H](n2cc(C)c(=O)[nH]c2=O)O1)Oc1ccc(Br)cc1	-	-	CEM(TK-) + CEM TK-	RT activity	-	22.8 µM
COC(=O)c1cc2c(c(OC)c1-c1ccc(N(C)C)cc1)OCO2	NL4-3	WT	C8166	antigen	-	0.53 µM
O=C(O)c1ccc(-c2c3nc(c(-c4ccc(C(=O)O)cc4)c4ccc([nH]4)c(-c4ccc(C(=O)O)cc4)c4nc(c(-c5ccc(C(=O)O)cc5)c5ccc2[nH]5)C=C4)C=C3)cc1	BaL	-	MAGI cell	β-galactosidase	-	4.7 µM
COC(=O)C(C)CNP(=O)(OC[C@@H]1CC[C@H](n2cc(C)c(=O)[nH]c2=O)O1)Oc1ccc(Cl)cc1	-	-	CEM(TK-) + CEM TK-	RT activity	-	21.9 µM
Nc1ccn([C@H]2C=C[C@@H](CO)O2)c(=O)n1	HXB2	RT-V75T 184V	CD4+HELA + HeLa	plaque count	-	1 µM
Cc1cc(=O)c2ccc(N=C=S)cc2o1	NL4-3	-	CEM-GFP	p24 / ELISA	-	0.155 µM
CC(C)=CCN1Cc2cc(Cl)cc3[nH]c(=S)n(c23)C[C@@H]1C	RTMC (RT-Y181C)	RT-D67N K70R Y181C T215Y K219Q	HT4 + HT4 LacZ-1	plaque count	-	2.5 µM
O=C(O)P(=O)(O)O	HX88C (RT-W88C)	RT-W88C	HT4LACZ-1 + HT4 LacZ-1	-	-	49.5 µM
Nc1ncnc2c1ncn2CCOCP(=O)(O)O	HXB2D	-	CBMC	p24	-	0.22 ± 0.03 µM
Cc1cc(O)cc(S(=O)(=O)c2cccc(N)c2C#N)c1	-	RT-Y181C	HeLa + HELA CD4+	β-galactosidase	-	36 µM
CNCc1ccc2c(c1)[C@@H](CC[C@@H](O)CO)[C@H](CN=C(N)N)[C@H]2NC(=O)C(=O)Nc1ccc(Cl)c(F)c1	JR-FL	-	Cf2Th-CD4/CCR5	luciferase / entry	-	22 µM
CC1(C)C2=CC(=O)C(O)(c3ccccc3)C(=O)N2c2ccc(Cl)cc21	CC1	-	PBMC/1(CC1) + PBMC	p24	-	0.08 µM
Cc1cc(Br)cc(S(=O)(=O)c2cccc(N)c2C#N)c1	-	RT-V106A	HeLa + HELA CD4+	β-galactosidase	-	0.0024 µM
COC(=O)C(C)CNP(=O)(OC[C@@H]1CC[C@H](n2cc(C)c(=O)[nH]c2=O)O1)Oc1ccc(F)cc1	-	-	CEM(TK-) + CEM TK-	RT activity	-	32.7 µM
Clc1nc(Cl)c2[nH]cnc2n1	-	RT-M184V	CD4+HELA + HeLa	p24	-	1 µM
Cc1cn([C@H]2C[C@H](N=[N+]=[N-])[C@@H](CO)O2)c(=O)[nH]c1=O	HXB2D	-	CBMC	RT activity	-	0.0033 µM
Cc1cn([C@H]2C[C@H](N=[N+]=[N-])[C@@H](CO)O2)c(=O)[nH]c1=O	CLADE A	-	PBL	p24	-	0.001 µM
O=C(O)c1cc[c]([Sb](=[O])([OH])[OH])cc1[N+](=O)[O-]	NL4-3	-	MAGI	β-galactosidase	-	2.47 µM
CSc1ccccc1NC(=O)CSc1nnnn1-c1ccccc1SC	NL4.3-XCS	M184V (3TC-resistant)	HeLa CD4	β-galactosidase	-	0.206 µM
C#C[C@]1(CO)O[C@@H](n2cnc3c(N)nc(F)nc32)C[C@@H]1O	Clinical isolate	M184V	MT4-GFP	fluorescence	-	0.00725 µM
Cc1cn([C@H]2C[C@H](N=[N+]=[N-])[C@@H](CO)O2)c(=O)[nH]c1=O	IIIB/LAI	-	MOLT-4 (CLONE 8) + MOLT-4	antigen	-	0.0004 µM
COc1ccc2c(c1)c1c3c(c4c5ccccc5n(C)c4c1n2CCC#N)C(=O)NC3=O	-	-	U1/HIV-1(+PMA) + U1	p24	-	0.118 µM
O=C(NCc1ccc(F)cc1)c1nc(N2CCCCS2(=O)=O)c2cccnc2c1O	BaL	-	Macrophage	p24	-	<0.104 µM
O=C(O)P(=O)(O)O	LAI-VIRAL CLONE	-	HT4LACZ-1 + HT4 LacZ-1	syncytia	-	38 µM
O=c1[nH]cnc2c1ncn2[C@H]1CC[C@@H](CO)O1	HXB2	RT-A62V V75I F77L F116Y Q151M	MAGI (CCR5) + MAGI	β-galactosidase	-	52 µM
Nc1ccn([C@H]2CC[C@@H](CO)O2)c(=O)n1	HXB2D	-	CBMC	RT activity	-	0.041 µM
O=c1[nH]cnc2c1ncn2[C@H]1CC[C@@H](CO)O1	7076 CLADE D CLADE D	-	PBMC	p24	-	3.83 µM
c1ccc(CNc2nc(-c3cccnc3)cs2)cc1	NL4.3-XCS	M184V (3TC-resistant)	HeLa CD4	β-galactosidase	-	0.662 µM
Cc1cc(Cl)cc(S(=O)(=O)c2cccc(N)c2C#N)c1	-	RT-V106A Y181C	HeLa + HELA CD4+	β-galactosidase	-	0.077 µM
Cc1cn([C@H]2C=C[C@@H](CO)O2)c(=O)[nH]c1=O	HXB2	RT-Y181C	MAGI (CCR5) + MAGI	β-galactosidase	-	5.2 µM
CC(=O)c1ccc(C)cc1NC(C(N)=O)c1c(Cl)cccc1Cl	IIIB	RT-E138K	MAGI	MTT	-	0.053 µM
O=C([O-])c1cc(COc2ccc(-c3c4nc(c(-c5ccc(OCc6cc(C(=O)[O-])cc(C(=O)[O-])c6)cc5)c5ccc([n-]5)c(-c5ccc(OCc6cc(C(=O)[O-])cc(C(=O)[O-])c6)cc5)c5nc(c(-c6ccc(OCc7cc(C(=O)[O-])cc(C(=O)[O-])c7)cc6)c6ccc3[n-]6)C=C5)C=C4)cc2)cc(C(=O)[O-])c1	BaL	-	MAGI cell	β-galactosidase	-	0.12 µM
CSC[C@H](NC(=O)COc1cccc2cnccc12)C(=O)N[C@@H](Cc1ccccc1)[C@H](O)C(=O)N1CSC(C)(C)[C@H]1C(=O)NC(C)(C)C	AZT-sens	-	PBMC(PHA STIM.) + PBMC	p24	-	0.01 µM

The last 3 rows once more:

{"SMILES": "CC(=O)c1ccc(C)cc1NC(C(N)=O)c1c(Cl)cccc1Cl", "strain or isolate": "IIIB", "mutations": "RT-E138K", "cell line": "MAGI", "read by": "MTT", "result": "0.053 µM"}
{"SMILES": "O=C([O-])c1cc(COc2ccc(-c3c4nc(c(-c5ccc(OCc6cc(C(=O)[O-])cc(C(=O)[O-])c6)cc5)c5ccc([n-]5)c(-c5ccc(OCc6cc(C(=O)[O-])cc(C(=O)[O-])c6)cc5)c5nc(c(-c6ccc(OCc7cc(C(=O)[O-])cc(C(=O)[O-])c7)cc6)c6ccc3[n-]6)C=C5)C=C4)cc2)cc(C(=O)[O-])c1", "strain or isolate": "BaL", "cell line": "MAGI cell", "read by": "β-galactosidase", "result": "0.12 µM"}
{"SMILES": "CSC[C@H](NC(=O)COc1cccc2cnccc12)C(=O)N[C@@H](Cc1ccccc1)[C@H](O)C(=O)N1CSC(C)(C)[C@H]1C(=O)NC(C)(C)C", "strain or isolate": "AZT-sens", "cell line": "PBMC(PHA STIM.) + PBMC", "read by": "p24", "result": "0.01 µM"}